Fitness effects across NS2B and the NS3 protease domain of Zika virus

The measurements come from Ni et al. 2025 (doi:10.1038/s41467-025-63602-z).

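Pools of virus carrying all single amino acid changes were selected for growth in Huh-7.5 cells. Sequencing of three replicate libraries (two for positions 207-308) was averaged into one effect per change. The study looked for pockets that tolerate few changes, as a guide for inhibitor design.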

Chain scanned (Zika virus MR766; NS2B from position 2 to 131, then the start of NS3):
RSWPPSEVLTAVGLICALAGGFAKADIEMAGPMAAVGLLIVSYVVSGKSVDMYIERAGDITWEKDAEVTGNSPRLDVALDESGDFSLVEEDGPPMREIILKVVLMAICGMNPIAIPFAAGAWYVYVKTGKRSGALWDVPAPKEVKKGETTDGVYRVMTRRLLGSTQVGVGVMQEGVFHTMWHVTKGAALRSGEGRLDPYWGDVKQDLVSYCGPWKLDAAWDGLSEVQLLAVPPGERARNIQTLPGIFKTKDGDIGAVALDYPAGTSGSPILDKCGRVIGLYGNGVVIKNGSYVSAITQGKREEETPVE

Scale: log2 effect, wild type = 0; the lower, the more harmful to the virus.
Substitutions are written as wild-type residue, site number, new residue.

substitution,effect (log2)
R1L,-5.44
P4Y,-4.97
G20S,-0.96
G21E,-7.02
I27S,-3.15
E28C,-3.39
M33A,-2.26
Y43H,-5.42
S49Q,-4.18
V50R,-5.43
D51H,-4.34
I54K,-6.40
E55A,-3.18
G58C,-1.37
S72N,-5.75
P73F,-3.40
D91I,-2.53
P93D,-5.07
P94F,-2.40
L104*,-7.98
A106K,-5.22
I107E,-5.10
A119V,-0.81
V124T,-1.22
Y125H,-2.95
R131P,-7.28
L135E,-6.76
P141E,-4.25
M157E,-4.50
M157L,-0.85
T158Y,-4.87
G168N,-4.83
V169P,-6.97
G170V,-4.80
V171D,-5.19
V171S,-6.94
Q173Y,-2.79
V176M,-5.05
H178T,-6.29
V183K,-4.56
T184K,-6.28
L189Q,-6.41
S191K,-5.04
E193M,-1.87
R195P,-6.16
P198E,-6.41
W200S,-7.71
D206N,-5.53
D206W,-6.56
C211L,-1.62
E225M,-6.07
P232D,-4.96
D260R,-5.07
P262V,-5.43
S268Q,-4.11
C274M,1.16
G284T,-5.75
N289C,-5.15
N289K,-5.56
I296T,-4.78
R301W,-4.12
E302L,0.17

Extract of 8 entries:

substitution	effect (log2)
I296T	-4.78
L104*	-7.98
I54K	-6.40
S268Q	-4.11
N289K	-5.56
S72N	-5.75
R131P	-7.28
V169P	-6.97

Positions 1-103, 104-206 and 207-308 were made and measured as separate libraries.
The authors count -1 or higher as tolerated. Position 1 is the last residue of NS2A.
Values above 0 are not proof of better growth: six high scorers were tested one by one, five grew less well than wild type and one about as well.
An asterisk is a stop codon; stop codons read about -7, near the floor of the assay.